From the NIST ThermoML archive (doi:10.1021/je700746a)

How the values were obtained:
[1] = 298.15 K; 101.33 kPa; Liquid
[2] = an = ratio of the nth substance listed; conditions: 101 kPa, Liquid; for mass density: Pycnometric method

CCCCOP(=O)(OCCCC)OCCCC [tributyl phosphate]
Conditions | viscosity [mPa·s]
[1] | 3.45

CCCCOP(=O)(OCCCC)OCCCC [tributyl phosphate] + CC(=O)CC(C)C
[2]
Conditions | kinematic viscosity, 283.1 K [m2/s] | kinematic viscosity, 293.15 K [m2/s] | kinematic viscosity, 303.15 K [m2/s] | kinematic viscosity, 313.15 K [m2/s] | kinematic viscosity, 323.15 K [m2/s] | mass density, 283.1 K [kg/m3] | mass density, 293.15 K [kg/m3] | mass density, 303.15 K [kg/m3] | mass density, 313.15 K [kg/m3] | mass density, 323.15 K [kg/m3]
a1 = 1.5 | 2.15e-06 | 1.78e-06 | 1.47e-06 | 1.23e-06 | 1.1e-06 | 915 | 908.9 | 903.4 | 898.5 | 894.2
a1 = 2.3 | 2.56e-06 | 2.1e-06 | 1.72e-06 | 1.41e-06 | 1.24e-06 | 926 | 921.8 | 916.8 | 911 | 904.4
a1 = 4 | 3.12e-06 | 2.55e-06 | 2.07e-06 | 1.68e-06 | 1.45e-06 | 948.5 | 941.8 | 935.3 | 929 | 922.9
